Results of unrelated studies side by side (data: NIAID ChemDB).

Shared fields: whole-cell or culture tests; organism: Mycobacterium bovis

Lines come from different laboratories, so protocols vary. MIC50, MIC90 and the like: level of inhibition, or share of isolates inhibited. Blank or dashed fields: not listed here. Percent inhibition refers to the dose given; in toxicity tests it is the harm to the cells. ECn: concentration that inhibits the pathogen or its effect by n%. Two numbers with a dash give a range or band.

{"smiles": "Cc1ccc(-c2cnc3cc4ccccc4cc3n2)cc1", "strain or isolate": "BCG", "endpoint": "EC50", "value": "1.2 µM"}
{"smiles": "COc1cc(OC)c(C(=O)CCc2ccccc2)c(OC)c1", "strain or isolate": "BCG", "endpoint": "MIC", "method": "resazurin", "value": ">256 µM"}
{"smiles": "CCc1cc(C(N)=S)ccn1", "strain or isolate": "BCG (PMV261)", "endpoint": "MIC", "value": "2 µg/mL"}
{"smiles": "CCCCCC#Cc1cn([C@H]2C[C@H](O)[C@@H](CO)O2)c(=O)[nH]c1=O", "endpoint": "MIC90", "value": ">100 µg/mL"}
{"smiles": "Brc1ccc(-c2cnc3cc4ccccc4cc3n2)cc1", "strain or isolate": "BCG", "endpoint": "EC50", "value": "<1 µM"}
{"smiles": "C/C=C/C/C=C/CCC(=O)[C@H]1O[C@H]1C(N)=O", "strain or isolate": "BCG (PMV261)", "endpoint": "MIC", "value": "0.2–0.4 µg/mL"}
{"smiles": "O=c1[nH]c2ccc(F)cc2c(O)c1-c1ccccc1", "strain or isolate": "AN5 lux", "endpoint": "MIC90", "method": "luminescence", "value": "5.3 µM"}
{"smiles": "Cc1cn(C/C=C\\Cn2c(=O)n3c4c(cccc42)CC(N)C3)c(=O)[nH]c1=O", "strain or isolate": "BCG Pasteur", "endpoint": "EC50", "method": "resazurin / absorbance", "value": ">160 µg/mL"}
{"smiles": "c1ccc(Nc2cnc3cc4ccccc4cc3n2)cc1", "strain or isolate": "BCG", "endpoint": "EC50", "value": "<1 µM"}
{"smiles": "COc1ccnc2[nH]cc(C(=O)C(=O)N3CCN(C(=O)c4ccccc4)C[C@H]3C)c12", "conditions": "pseudotyped", "strain or isolate": "BCG", "endpoint": "EC50", "value": "0.001 µM"}
{"smiles": "C[C@@H]1CN(c2c(F)c(N)c3c(=O)c(C(=O)O)cn(C4CC4)c3c2F)C[C@H](C)N1", "strain or isolate": "ATCC 19210", "endpoint": "MIC", "method": "broth dilution / visual reading", "value": "0.1 µg/mL"}
{"smiles": "O=C(CCCCCCCC[C@H]1C=CCC1)OCC(O)CO", "strain or isolate": "BCG Pasteur", "endpoint": "MIC", "method": "GFP", "value": "0.52 µM"}
{"smiles": "CC(C)CCOc1ccc(NC(=S)Nc2ccc(OCCC(C)C)cc2)cc1", "strain or isolate": "BCG (PMV261::KASB)", "endpoint": "MIC", "value": "0.25 µg/mL"}
{"smiles": "CCCCCCC1=CN([C@@H]2O[C@H](CO)[C@@H](O)[C@@H]2O)NN1", "strain or isolate": "BCG", "endpoint": "MIC", "method": "resazurin", "value": "500 µg/mL"}
{"smiles": "C[C@]1(COc2ccc(N3CCC(Oc4ccc(OC(F)(F)F)cc4)CC3)cc2)Cn2cc([N+](=O)[O-])nc2O1", "strain or isolate": "BCG Montreal", "endpoint": "MIC", "value": "0.006 µg/mL"}
{"smiles": "CC(=O)NC1Cc2cccc3c2n(c(=O)n3C/C=C\\Cn2cc(C)c(=O)[nH]c2=O)C1", "strain or isolate": "BCG Pasteur", "endpoint": "EC50", "method": "resazurin / absorbance", "value": ">160 µg/mL"}
{"smiles": "[N-]=[N+]=N[C@H]1C[C@H](n2cc(F)c(=O)[nH]c2=O)O[C@@H]1CO", "tested at": "100 µg/mL", "strain or isolate": "BCG", "endpoint": "inhibition", "method": "resazurin", "value": "0%"}
{"smiles": "COc1ccc2c(O)c(-c3ccccc3)c(=O)[nH]c2c1", "strain or isolate": "AN5 lux", "endpoint": "MIC90", "method": "luminescence", "value": "9.5 µM"}
{"smiles": "C=C/C(C)=C/[C@@]1(C)SC(=O)C(C)=C1O", "strain or isolate": "BCG (PMV261::KASA)", "endpoint": "MIC", "value": "80 µg/mL"}
{"smiles": "O=C(O)CCCCCCCCCC(=O)C1=CCCC1", "strain or isolate": "BCG Pasteur", "endpoint": "MIC", "method": "GFP", "value": "13.8 µM"}
{"smiles": "O=C1CCC(=O)N(O)CCCCCNC(=O)CCC(=O)N(O)CCCCCNC(=O)CCC(=O)N(O)CCCCCN1", "strain or isolate": "BCG", "endpoint": "MIC", "method": "MTT", "value": ">160 µM"}
{"smiles": "Cc1cc2[nH]c(=O)c(-c3ccccc3)c(O)c2cc1C", "strain or isolate": "AN5 lux", "endpoint": "MIC90", "method": "luminescence", "value": "13.2 µM"}
{"smiles": "c1ccc(-c2nc3cc4ccccc4cc3nc2-c2ccccc2)cc1", "strain or isolate": "BCG", "endpoint": "EC50", "value": "7.7 µM"}
{"smiles": "CN[C@H](CC(C)C)C(=O)N[C@H]1C(=O)N[C@@H](CC(N)=O)C(=O)N[C@H]2C(=O)N[C@H]3C(=O)N[C@H](C(=O)N[C@H](C(=O)O)c4cc(O)cc(O)c4-c4cc3ccc4O)[C@H](O)c3ccc(c(Cl)c3)Oc3cc2cc(c3O[C@@H]2O[C@H](CO)[C@@H](O)[C@H](O)[C@H]2O[C@H]2C[C@](C)(N)[C@H](O)[C@H](C)O2)Oc2ccc(cc2Cl)[C@H]1O", "endpoint": "MIC", "method": "broth dilution", "value": "250 µg/mL"}
{"smiles": "COc1nn(-c2cccc(Oc3ccccc3)c2)c(=O)o1", "endpoint": "MIC99", "value": "10–20 µg/mL"}
{"smiles": "CCc1cn([C@H]2C[C@H](I)[C@@H](CO)O2)c(=O)[nH]c1=O", "tested at": "100 µg/mL", "strain or isolate": "BCG", "endpoint": "inhibition", "method": "resazurin", "value": "0%"}
{"smiles": "c1ccc(-c2cnc3cc4ccccc4cc3n2)cc1", "strain or isolate": "BCG", "endpoint": "EC50", "value": "0.9 µM"}

For reference, 2 entries again:

smiles | conditions | tested at | strain or isolate | endpoint | method | value
CC(=O)NC1Cc2cccc3c2n(c(=O)n3C/C=C\Cn2cc(C)c(=O)[nH]c2=O)C1 |  |  | BCG Pasteur | EC50 | resazurin / absorbance | >160 µg/mL
C[C@]1(COc2ccc(N3CCC(Oc4ccc(OC(F)(F)F)cc4)CC3)cc2)Cn2cc([N+](=O)[O-])nc2O1 |  |  | BCG Montreal | MIC |  | 0.006 µg/mL